Results of unrelated studies side by side (data: NIAID ChemDB).

Common to all: growth or infection tests; organism: HIV-1

a–b is a range or a potency band. Blank or dashed fields: not listed here. ECn is the concentration giving n% inhibition of infection, replication or growth. Conditions beyond the fields shown may differ between rows.

smiles | changes | conditions | read by | cell line | strain or isolate | measure | result
CC[C@H]1CC[C@@H](O)[C@@H](OC)CCCC[C@@H](c2ccccc2)OC(=O)[C@@H](C)[C@@]2(O)O[C@@H]1[C@@H](C)[C@H](O)[C@H]2OC | - | - | - | TZM-bl | LAI | EC50 | 0.3 µM
CCNc1cccnc1N1CCN(C(=O)c2cc3cc(OC)ccc3[nH]2)CC1 | - | - | - | MT-2 | LAV | EC50 | 0.39 µM
CC(C)[C@H](NC(=O)OCc1ccccc1)C(=O)N[C@@H](Cc1ccccc1)[C@H](O)[C@@H](O)[C@H](Cc1ccccc1)NC(=O)[C@@H](NC(=O)OCc1ccccc1)C(C)C | - | - | cytopathic effect / MTT | MT-4 | IIIB | EC50 | 0.02–0.4 µM
CCc1cc(NCc2nc3c(Cl)ccc(Cl)c3o2)c(=O)[nH]c1C | - | - | p24 / ELISA | H9 | IIIB | EC50 | <0.2 µM
C=CCN(C(=O)OCc1ccc([N+](=O)[O-])cc1)C1CCN(C[C@H]2CN(C(=O)c3ccccc3Cl)C[C@@H]2c2ccccc2)CC1 | - | - | p24 | PBMC | BaL | EC50 | <0.031 µM
CC(C)(C)OC(=O)N1CCCN(C(=O)OC(C)(C)C)CCN(C(=O)OC(C)(C)C)CCCN(CCCCC(=O)Nc2ccn([C@H]3CS[C@@H](COC(=O)CCCCN4CCCN(C(=O)OC(C)(C)C)CCN(C(=O)OC(C)(C)C)CCCN(C(=O)OC(C)(C)C)CC4)O3)c(=O)n2)CC1 | - | - | syncytia | MT-4 | - | EC50 | 1 µM
C[C@H](Cn1cnc2c(N)ncnc21)OCP(=O)(O)O | X4/R5 | - | luciferase | TZM-bl | 89.6 | EC50 | 6.8 µM
CCOP(=O)(OCC)c1cc(NC(=O)c2cc(NC(=O)c3cc(NC(=O)Nc4cc(C(=O)Nc5cc(C(=O)Nc6cc(P(=O)(OCC)OCC)c7cccc(P(=O)(OCC)OCC)c7c6)n(C)c5)n(C)c4)cn3C)cn2C)cc2c(P(=O)(OCC)OCC)cccc12 | - | - | cytopathic effect / XTT | CEM + CEM-SS | RF | EC50 | >200 µM
Nc1ncnc2c1ncn2[C@@H]1O[C@H](CO)[C@H]1CO | - | - | - | MT-4 | IIIB | EC50 | 1.7 µg/mL
Cc1c(C(C)(C)C)s/c(=N\S(=O)(=O)c2ccccc2[N+](=O)[O-])n1C | - | - | cytopathic effect / MTT | MT-4 | IIIB | EC50 | >25 µM
Cc1cn([C@H]2C[C@H](N=[N+]=[N-])[C@@H](CO)O2)c(=O)[nH]c1=O | RT-K65R | - | p24 | MT-4 | HXB2-D65(RT-K65R) | EC50 | 0.01 µM
Cc1cn([C@H]2C[C@H](N=[N+]=[N-])[C@@H](CO)O2)c(=O)[nH]c1=O | - | - | p24 | H9 | IIIB | EC50 | 0.014 µM
CCOP(=O)(N[C@H]1C[C@H](n2cc(C)c(=O)[nH]c2=O)O[C@@H]1CO)OCC | - | - | - | PBMC | LAV | EC50 | >100 µM
COc1cc2c(OC3O[C@H](CO)[C@H](O)[C@@H]4OC(C)(C)O[C@@H]34)c3c(c(-c4ccc5c(c4)OCO5)c2cc1OC)C(=O)OC3 | - | pseudotyped | luciferase | 293T | NL4-3 | EC50 | >0.0527 µM
Oc1cc(O)c2c(c1)O[C@H](c1cc(O)c(O)c(O)c1)[C@H](O)C2 | - | - | p24 | H9 | IIIB | EC50 | >1.8 µg/mL
Cc1ccnc2c1NC(=O)c1cccnc1N2C1CC1 | RT-Y181C | - | p24 | PBMC | A17 | EC50 | >1 µM
Cc1cn([C@H]2C[C@H](N=[N+]=[N-])[C@@H](CO)O2)c(=O)[nH]c1=O | - | - | syncytia | C8166 | IIIB | EC50 | 0.14 µg/mL
Cc1cn([C@H]2C[C@H](N=[N+]=[N-])[C@@H](CO)O2)c(=O)[nH]c1=O | - | - | cytopathic effect / XTT | CEM + CEM-SS | RF | EC50 | 1.71 µM
Cc1c(C(C)(C)C)s/c(=N\S(=O)(=O)c2cccc(Cl)c2O)n1C | - | - | cytopathic effect / MTT | MT-4 | IIIB | EC50 | 11 µM
COC(=O)N[C@H](C(=O)N[C@@H](Cc1ccc(C#Cc2cnc(N3CC4CCC(C3)N4C3COC3)nc2)cc1)[C@H](CN(Cc1c(F)cc(-c2ccn(C(F)F)n2)cc1F)NC(=O)[C@@H](NC(=O)OC)C(C)(C)C(F)(F)F)OC(=O)CC(C)(C)c1c(CC(=O)NC(CCC(=O)O)CCC(=O)O)cc(C)cc1OP(=O)(O)O)C(C)(C)C(F)(F)F | - | - | luminescence | MT-4 | IIIB | EC50 | 0.0491 µM
Cc1c(C(C)(C)C)s/c(=N\S(=O)(=O)c2ccc(O)cc2)n1C | - | - | cytopathic effect / MTT | MT-4 | IIIB | EC50 | >25 µM
Cc1cn([C@H]2C[C@H](N=[N+]=[N-])[C@@H](CO)O2)c(=O)[nH]c1=O | - | - | p24 / ELISA | H9 | IIIB | EC50 | <20 µM
CCCc1cc(=O)oc2c3c(c4c(c12)OC(C)(C)CC4)O[C@H](C)[C@@H](C)[C@@H]3O | - | - | syncytia | CEM + CEM-SS | RF | EC50 | 0.17 µM
O=C(O[C@@H]1Cc2c(O)cc(O)cc2O[C@@H]1c1cc(O)c(O)c2c(=O)c(O)cc([C@H]3Oc4cc(O)cc(O)c4C[C@H]3O)cc12)c1cc(O)c(O)c(O)c1 | - | - | p24 | H9 | IIIB | EC50 | >48 µg/mL
NC(=O)c1ncn([C@@H]2O[C@H](CO)[C@@H](O)[C@H]2O)n1 | - | - | cytopathic effect | MT-4 | IIIB | EC50 | >3.3 µM
C#CNc1c2c(c(-c3ccc4c(c3)OCO4)c3cc(OC)c(OC)cc13)C(=O)OC2 | - | pseudotyped | luciferase | 293T | NL4-3 | EC50 | 0.0188 µM
Cc1c(C(C)(C)C)s/c(=N\S(=O)(=O)c2ccccc2)n1C | - | - | cytopathic effect / MTT | MT-4 | IIIB | EC50 | >25 µM
COC(=O)N[C@H](C(=O)N[C@@H](Cc1ccc(C#Cc2cnc(N3CC4CCC(C3)N4C3COC3)nc2)cc1)[C@H](CN(Cc1c(F)cc(-c2ccn(C(F)F)n2)cc1F)NC(=O)[C@@H](NC(=O)OC)C(C)(C)C(F)(F)F)OC(=O)CC(C)(C)c1c(CC(=O)Nc2cc(C(=O)O)cc(C(=O)O)c2)cc(C)cc1OP(=O)(O)O)C(C)(C)C(F)(F)F | - | - | luminescence | MT-4 | IIIB | EC50 | 0.0622 µM
Cc1c(O)c(=O)ccn1C | - | - | p24 | PBL | BaL | EC50 | <100 µM
Cc1cn([C@H]2C[C@H](N=[N+]=[N-])[C@@H](CO)O2)c(=O)[nH]c1=O | - | - | cytopathic effect / MTT | MT-4 | IIIB | EC50 | 0.032 µM
Cc1cn([C@H]2C[C@H](N=[N+]=[N-])[C@@H](CO)O2)c(=O)[nH]c1=O | - | - | cytopathic effect / MTT | MT-4 | RF | EC50 | 0.0011 µM
Cc1c(C(C)(C)C)s/c(=N\S(=O)(=O)c2cccc(O)c2)n1C | - | - | cytopathic effect / MTT | MT-4 | IIIB | EC50 | >25 µM
COc1c(O)ccc(C(=O)N[C@@H](CSc2ccccc2)[C@H](O)CN2C[C@H]3CCCC[C@H]3C[C@H]2C(=O)NC(C)(C)C)c1C | - | - | cytopathic effect / MTT | CEM + CEM-SS | RF | EC50 | 0.1508 µM
CSC(=S)O[C@H]1C[C@H](n2cc(C)c(=O)[nH]c2=O)O[C@@H]1CO | - | - | - | PBMC | LAV | EC50 | >100 µM
C/C1=C/C[C@@H](/C(C)=C/c2csc(C)n2)OC(=O)C[C@H](O)C(C)(C)C(=O)[C@H](C)[C@@H](O)[C@@H](C)CCC1 | - | - | - | TZM-bl | LAI | EC50 | 0.0005 µM
O=c1[nH]cnc2c1ncn2[C@H]1CC[C@@H](CO)O1 | - | - | - | MT-4 | IIIB | EC50 | 0.21 µg/mL
CCCC(=O)O[C@H]1CN2CC[C@H](O)[C@@H]2[C@@H](O)[C@@H]1O | - | - | MTT | MT-4 | RF | EC50 | 100 µM
CC(C)Nc1cccnc1N1CCN(C(=O)c2cc3cc(NS(C)(=O)=O)ccc3[nH]2)CC1 | RT-K103N | - | cytopathic effect | CEM | Y-1 (RT-K103N) | EC50 | 0.6 µg/mL
CC(C)[C@H](NC(=O)OCc1ccccc1)C(=O)N[C@@H](Cc1ccccc1)[C@H](O)[C@H](O)[C@H](Cc1ccccc1)NC(=O)[C@@H](NC(=O)OCc1ccccc1)C(C)C | - | - | cytopathic effect / MTT | MT-4 | IIIB | EC50 | 0.02–0.4 µM
Cc1ccnc2c1NC(=O)c1cccnc1N2C1CC1 | - | - | - | TZM-bl | LAI | EC50 | 0.07 µM
COc1cc2c(OC3O[C@@H]4COC(C)(C)O[C@@H]4[C@H](O)[C@H]3O)c3c(c(-c4ccc5c(c4)OCO5)c2cc1OC)C(=O)OC3 | - | pseudotyped | luciferase | 293T | NL4-3 | EC50 | >0.0527 µM
Cc1cn([C@H]2C[C@H](N=[N+]=[N-])[C@@H](CO)O2)c(=O)[nH]c1=O | - | - | cytopathic effect / XTT | CEM + CEM-SS | ED | EC50 | 0.008 µM
CC[C@H]1C(=O)Nc2ccc(F)cc2N1C(=O)OC(C)C | RT-L100I | - | cytopathic effect | CEM | A-0 (RT-L100I) | EC50 | 0.0014 µg/mL
Cc1cn([C@H]2C[C@H](N=[N+]=[N-])[C@@H](CO)O2)c(=O)[nH]c1=O | - | - | cytopathic effect | MT-4 | IIIB | EC50 | 0.002 µM
Cc1c(C(C)(C)C)s/c(=N\S(=O)(=O)c2cc(Cl)ccc2N)n1C | - | - | cytopathic effect / MTT | MT-4 | IIIB | EC50 | 0.025 µM
COc1cc2c(OC3O[C@H](CO)[C@H]4OC(C)(C)O[C@@H]4[C@H]3O)c3c(c(-c4ccc5c(c4)OCO5)c2cc1OC)C(=O)OC3 | - | pseudotyped | luciferase | 293T | NL4-3 | EC50 | >0.0527 µM
O=c1[nH]cnc2c1ncn2[C@H]1CC[C@@H](CO)O1 | - | - | syncytia | MT-4 | - | EC50 | 5 µM
Cc1csc(NC(=S)N[C@H](C)c2cccc3ccccc23)n1 | RT-K103N Y181C | - | p24 | PBMC | A17V(RT-K103N Y181C) | EC50 | 0.114 µM
Cc1cn([C@H]2C[C@H](N=[N+]=[N-])[C@@H](CO)O2)c(=O)[nH]c1=O | RT-I178L | - | p24 | MT-2 | NL4-3 | EC50 | 0.004 µM
O=C(O[C@@H]1Cc2c(O)cc(O)cc2O[C@@H]1c1cc(O)c(=O)c2c(O)c(O)cc([C@H]3Oc4cc(O)cc(O)c4C[C@H]3OC(=O)c3cc(O)c(O)c(O)c3)c2c1)c1cc(O)c(O)c(O)c1 | - | - | p24 | H9 | IIIB | EC50 | >48 µg/mL
Cc1cn([C@H]2C[C@H](N=[N+]=[N-])[C@@H](CO)O2)c(=O)[nH]c1=O | - | - | cytopathic effect / neutral red | MT-2 | NL4-3 (1-D4 IN G140S) | EC50 | 0.024 µM
COC(=O)[C@@H](NC(=O)[C@@H](NC(=O)CC[C@H](O)[C@H](Cc1ccccc1)NC(=O)[C@H](C)NC(=O)OCc1ccccc1)C(C)C)C(C)C | - | - | p24 | MOLT-4 | IIIB | EC50 | 0.04–3 µM
C[C@@H](NC(=S)Nc1ccc(Br)cn1)c1cccc2ccccc12 | RT-Y181C | - | p24 | PBMC | A17 | EC50 | 0.105 µM
CCc1c(Sc2cc(C)cc(C)c2)n(COCCOP(=O)(O)OC[C@H]2O[C@@H](n3cc(C)c(=O)[nH]c3=O)C[C@@H]2N=[N+]=[N-])c(=O)[nH]c1=O | RT-D67N K70R K172R | - | cytopathic effect / MTT | MT-4 | IIIB | EC50 | 0.01 µM
CC(C)=CCN1c2cc(Cl)cc3[nH]c(=S)n(c23)C[C@@H]1C | RT-M41L T215Y A98G | - | - | MT-4 | - | EC95 | 0.8 µM
Cc1cn([C@H]2C[C@H](N=[N+]=[N-])[C@@H](COC(=O)CCCC(=O)N3CCCN(C(=O)OC(C)(C)C)CCN(C(=O)OC(C)(C)C)CCCN(C(=O)OC(C)(C)C)CC3)O2)c(=O)[nH]c1=O | - | - | syncytia | MT-4 | - | EC50 | 0.1 µM
Cc1cn([C@H]2C[C@H](N=[N+]=[N-])[C@@H](CO)O2)c(=O)[nH]c1=O | RT-L100I | - | cytopathic effect | CEM | A-0 (RT-L100I) | EC50 | 0.0128 µM
OC[C@@H]1[C@@H](O)[C@H](O)[C@@H](O)CN1C/C=C/c1ccccc1 | - | - | syncytia | MOLT-4 | - | EC50 | <5 µg/mL
COc1cc2c(OCC(C)(C)O)c3c(c(-c4ccc5c(c4)OCO5)c2cc1OC)C(=O)OC3 | - | pseudotyped | luciferase | 293T | NL4-3 | EC50 | 0.015 µM
CCCc1cc(=O)oc2c3c(c4c(c12)OC(C)(C)CC4)O[C@@H](C)[C@H](C)[C@@H]3O | - | - | RT activity | CEM + CEM-SS | RF | EC50 | 0.12 µM

For reference, 9 entries again:

smiles	changes	conditions	read by	cell line	strain or isolate	measure	result
COc1cc2c(OCC(C)(C)O)c3c(c(-c4ccc5c(c4)OCO5)c2cc1OC)C(=O)OC3	-	pseudotyped	luciferase	293T	NL4-3	EC50	0.015 µM
CCOP(=O)(N[C@H]1C[C@H](n2cc(C)c(=O)[nH]c2=O)O[C@@H]1CO)OCC	-	-	-	PBMC	LAV	EC50	>100 µM
CC(C)(C)OC(=O)N1CCCN(C(=O)OC(C)(C)C)CCN(C(=O)OC(C)(C)C)CCCN(CCCCC(=O)Nc2ccn([C@H]3CS[C@@H](COC(=O)CCCCN4CCCN(C(=O)OC(C)(C)C)CCN(C(=O)OC(C)(C)C)CCCN(C(=O)OC(C)(C)C)CC4)O3)c(=O)n2)CC1	-	-	syncytia	MT-4	-	EC50	1 µM
NC(=O)c1ncn([C@@H]2O[C@H](CO)[C@@H](O)[C@H]2O)n1	-	-	cytopathic effect	MT-4	IIIB	EC50	>3.3 µM
Cc1ccnc2c1NC(=O)c1cccnc1N2C1CC1	-	-	-	TZM-bl	LAI	EC50	0.07 µM
Cc1cn([C@H]2C[C@H](N=[N+]=[N-])[C@@H](CO)O2)c(=O)[nH]c1=O	-	-	p24 / ELISA	H9	IIIB	EC50	<20 µM
Cc1cn([C@H]2C[C@H](N=[N+]=[N-])[C@@H](COC(=O)CCCC(=O)N3CCCN(C(=O)OC(C)(C)C)CCN(C(=O)OC(C)(C)C)CCCN(C(=O)OC(C)(C)C)CC3)O2)c(=O)[nH]c1=O	-	-	syncytia	MT-4	-	EC50	0.1 µM
Cc1cn([C@H]2C[C@H](N=[N+]=[N-])[C@@H](CO)O2)c(=O)[nH]c1=O	-	-	cytopathic effect	MT-4	IIIB	EC50	0.002 µM
Cc1c(C(C)(C)C)s/c(=N\S(=O)(=O)c2ccc(O)cc2)n1C	-	-	cytopathic effect / MTT	MT-4	IIIB	EC50	>25 µM